Measurements from PMC7918733, “Biological Profiling of Semisynthetic C19-Functionalized Ferruginol and Sugiol Analogues” (Antibiotics, 2021).
Read-outs that look alike come from different tables or passages of the source.

Experiments:
[1] = tested on: L. infantum amastigotes; assay: Intracellular amastigote assay (fluorometric test); type: cell-based; conditions: SI = CC50/IC50 (J774)
[2] = tested on: L. amazonensis amastigotes; assay: Intracellular amastigote assay (fluorometric test); type: cell-based; conditions: SI = CC50/IC50 (J774)
[3] = tested on: P. falciparum 3D7 strain; assay: Antiplasmodial DNA stain-based growth assay; type: cell-based, Plasmodium falciparum; conditions: EC50 lower values of cytotoxic activity/EC50 antimalarial activity
Experimental: (§1) Assays were performed by using previously described DNA stain-based assay and methods, including cytotoxicity assays.

[4] = tested on: P. falciparum K1 strain; assay: Antiplasmodial DNA stain-based growth assay; type: cell-based, Plasmodium falciparum; conditions: EC50 lower values of cytotoxic activity/EC50 antimalarial activity
Experimental: as §1

[5] = tested on: L. infantum promastigotes; assay: Antileishmanial in vitro promastigote assay; conditions: SI = CC50/IC50 (J774)
[6] = tested on: L. donovani promastigotes; assay: Antileishmanial in vitro promastigote assay; conditions: SI = CC50/IC50 (J774)
[7] = tested on: L. amazonensis promastigotes; assay: Antileishmanial in vitro promastigote assay; conditions: SI = CC50/IC50 (J774)
[8] = tested on: L. guyanensis promastigotes; assay: Antileishmanial in vitro promastigote assay; conditions: SI = CC50/IC50 (J774)
[9] = tested on: L. infantum promastigotes; set-up: method as in PMID 30840453; conditions: C18-congeners, ratio CC50 / IC50; cited from earlier work
[10] = tested on: L. donovani promastigotes; conditions: C18-congeners, ratio CC50 / IC50; cited from earlier work
[11] = tested on: L. amazonensis promastigotes; set-up: method as in PMID 30840453; conditions: C18-congeners, ratio CC50 / IC50; cited from earlier work
[12] = tested on: L. guyanensis promastigotes; set-up: method as in PMID 30840453; conditions: C18-congeners, ratio CC50 / IC50; cited from earlier work

COC(=O)[C@@]1(C)CCC[C@]2(C)c3cc(C(C)=O)c(C(C)C)cc3CC[C@@H]12 [Compound 9]
L. infantum SI [1]: >8.8 | L. amazonensis SI [2]: >6.6 | P. falciparum 3D7 SI [3]: 1.9 | P. falciparum K1 SI [4]: 2.0 | L. infantum SI [5]: >10.0 | L. donovani SI [6]: >22.0 | L. amazonensis SI [7]: >14.0 | L. guyanensis SI [8]: >10.7

COC(=O)[C@]1(C)CCC[C@]2(C)c3cc(C(C)=O)c(C(C)C)cc3CC[C@@H]12 [Compound 9b]
L. infantum SI [9]: 51.8 | L. donovani SI [10]: 8.8 | L. amazonensis SI [11]: 11.2 | L. guyanensis SI [12]: 9.1

COC(=O)[C@@]1(C)CCC[C@]2(C)c3cc(OC(C)=O)c(C(C)C)cc3CC[C@@H]12 [Compound 10]
P. falciparum K1 SI [4]: 8.1 | L. infantum SI [5]: >8.4 | L. donovani SI [6]: >7.7 | L. amazonensis SI [7]: >4.1

COC(=O)[C@]1(C)CCC[C@]2(C)c3cc(OC(C)=O)c(C(C)C)cc3CC[C@@H]12 [Compound 10b]
L. infantum SI [9]: 20.4 | L. donovani SI [10]: 3.3 | L. amazonensis SI [11]: 8.2 | L. guyanensis SI [12]: 4.8

COC(=O)[C@@]1(C)CCC[C@]2(C)c3cc(OC(C)=O)c(C(C)C)cc3C(=O)C[C@@H]12 [Compound 11]
P. falciparum 3D7 SI [3]: 3.5

COC(=O)[C@]1(C)CCC[C@]2(C)c3cc(OC(C)=O)c(C(C)C)cc3C(=O)C[C@@H]12 [Compound 11b]
L. infantum SI [9]: 25.4 | L. donovani SI [10]: 4.1 | L. amazonensis SI [11]: 27.4 | L. guyanensis SI [12]: 13.6

COC(=O)[C@]1(C)CCC[C@]2(C)c3cc(O)c(C(C)C)cc3CC[C@@H]12 [Compound 12b]
L. infantum SI [9]: 6.8 | L. donovani SI [10]: 3.7 | L. amazonensis SI [11]: 8.7 | L. guyanensis SI [12]: 5.8

CC(C)c1cc2c(cc1O)[C@@]1(C)CCC[C@@](C)(CO)[C@@H]1CC2 [Compound 14b]
L. infantum SI [9]: 33.4 | L. donovani SI [10]: 1.7 | L. amazonensis SI [11]: 3.0 | L. guyanensis SI [12]: 1.9

CC(C)c1cc2c(cc1O)[C@@]1(C)CCC[C@@](C)(CO)[C@@H]1CC2=O [Compound 15b]
L. infantum SI [9]: 1.5 | L. donovani SI [10]: 0.7 | L. amazonensis SI [11]: 1.4 | L. guyanensis SI [12]: 0.9

CCCCCCCCCCCCCCCCOP(=O)([O-])OCC[N+](C)(C)C [Miltefosine, reference compound]
L. infantum SI [1]: 2.3 | L. amazonensis SI [2]: 8.2 | L. infantum SI [5]: 40.1 | L. donovani SI [6]: 909 | L. amazonensis SI [7]: 2.9 | L. guyanensis SI [8]: 7.5
